{
  "source": "patent US5629198A",
  "about": "(priority 1991, dated 1997)",
  "key": {"Hela/LAV cells": {"test_system": "Hela/LAV cells", "experiment": "Killing effect on various HIV-infected cells (Test Example 4)", "type": "cell-based", "details": "0.8 × 10^4 cell/well", "method": "(§1) MOLT4/HTLV-IIIB cells in a logarithmic growth phase were inoculated on a 96-well flat-bottom plate in a proportion of 2×10^4 cells/well (50 μl), and the above test substances in various concentrations were separately added in an amount of 50 μl thereto. After each cell sample was cultured for 3 days at 37° C. in the presence of 5% CO2, the number of living cells was counted by the MTT assay. More specifically, a 7.5 mg of MTT [3-(4,5-dimethylthiazol-2-yl)-2,5-diphenyl-2H-tetrazolium bromide]/ml phosphate buffer was added in a proportion of 20 μl/well to each well, thereby conducting reaction for 2 hours at 37° C. in the presence of 5% CO2. Then, 150 μl of a lysis solution [10% Triton X-100 solution in acid isopropanol] were added, and the mixture was thoroughly pipetted to solubulize the cells. Thereafter, the absorbance of the solution was measured.\n(§2) The killing effects of test substances on H9/MN cells, Hela/LAV cells and OM -10.1 (HL-60/LAV) cells were determined in the same manner as in Test Example 3 (1)."}, "H9/MN cells": {"test_system": "H9/MN cells", "experiment": "Killing effect on various HIV-infected cells (Test Example 4)", "type": "cell-based", "details": "2 × 10^4 cell/well", "method": "as §1, §2"}, "[1]": {"test_system": "OM-10.1 (HL-60/LAV) cells", "experiment": "Killing effect on various HIV-infected cells (Test Example 4)", "type": "cell-based", "details": "3 × 10^4 cell/well", "method": "as §1, §2"}, "[2]": {"test_system": "human peripheral blood lymphocytes (PBL), uninfected system", "experiment": "Cytotoxic effect on uninfected PBL (Test Example 6)", "type": "cell-based", "details": "sixth day, 8640 min", "method": "(§3) The anti-HIV effects of test substances on human peripheral blood lymphocytes infected with HIV were determined.\nAfter blood is collected from a vein by a syringe whose interior wall is wetted with heparin, PBL is separated from the blood with Ficol. After this PBL cell is inoculated on a 25-cm^2 culture flask containing 10 ml of a RPMI 1640 medium (including IL-2) added with 20% of a fetal bovine serum so as to contain 7×10^5 cells/ml therein, 40 μl (1 mg/ml) of PHA are added to culture the cells for 4 days. After 4 days, the cells are washed. Thereafter, they are used in assaying the anti-HIV effects of the test substances as PBL cells in an HIV-uninfected system for part of them, and in an HIV-infected system for the remainder. The PBL cells are inoculated on a 25-cm^2 culture flask added with 5 ml of the above medium so as to contain 2×10^6 cells therein. Then, 500 μl of S-HSA-Hemin or S-HSA-EDC-Hemin are given in various concentrations thereto so as to conduct culture at 37° C. in the presence of 5% CO2, thereby assaying the cytotoxic effects of the test substances in the various concentrations. With respect to the infected system on the other hand, 8 ml of HTLV-IIIB (10^7 TCID50 /ml) obtained from a culture supernatant of an HIV-persistently infected strain, MOLT-4/HTLV-IIIB are inserted in the PBL cells to culture them for 2 hours. Thereafter, the cells are washed, and then inoculated on a 25-cm^2 culture flask added with 5 ml of the above medium so as to contain 2×10^6 cells therein. In the same manner as described above, S-HSA-Hemin or S-HSA-EDC-Hemin is given in the various concentrations thereto, thereby conducting culture at 37° C. in the presence of 5% CO2. After 3, 6 and 9 days from the beginning of the culture, the number of cells are counted to calculate the quantity of the P24 protein produced and TCID50."}, "male ICR mice": {"test_system": "male ICR mice", "experiment": "One-administration toxicity test, intraperitoneal (Test Example 9)", "type": "in vivo", "details": "single, 21600 min", "method": "A specimen was dissolved at a protein concentration of 100 mg/ml in a physiological saline (pH 7.0), and the solution was sterilely filtered through a membrane filter of 0.22 μm. The filtrate was intraperitoneally administered to male ICR mice (Charles River Japan, Inc.) aged 5 weeks and 5 days. Defining the day of the administration as 0 day, their weights were measured on the second, fourth, seventh, tenth and fifteenth days.\nIn each of the toxicity tests, organ autopsy was conducted to all the mice on the fifteenth day after the administration."}, "[3]": {"test_system": "HIV envelope protein gp120 positive cells", "experiment": "gp120 positive cells in HIV-infected PBL system, FACS (Test Example 7)", "type": "cell-based, human", "details": "200 μg/ml", "method": "as §3\nAfter blood is collected from a vein by a syringe whose interior wall is wetted with heparin, PBL is separated from the blood with Ficol. After this PBL cell is inoculated on a 25-cm^2 culture flask containing 10 ml of a RPMI 1640 medium (including IL-2) added with 20% of a fetal bovine serum so as to contain 7×10^5 cells/ml therein, 40 μl (1 mg/ml) of PHA are added to culture the cells for 2 days. After 2 days, the cells are washed. Thereafter, they are used in assaying the anti-HIV effects of the test substances as PBL cells in an HIV-uninfected system for part of them, and in an HIV-infected system for the remainder. The PBL cells are inoculated on a 25-cm^2 culture flask added with 5 ml of the above medium so as to contain 2×10^6 cells therein. Then, 500 μl (final concentration: 200 μg/ml) of S-HSA-EDC-Hemin are given thereto so as to conduct culture at 37° C. in the presence of 5% CO2, thereby assaying the cytotoxic effect of the test substance. With respect to the infected system on the other hand, 0.5 ml of HTLV-IIIB (10^7 TCID50 /ml) obtained from a culture supernatant of an HIV-persistently infected strain, MOLT-4/HTLV-IIIB is inserted in the PBL cells to culture them for 2 days. Thereafter, the cells are washed, and then inoculated on a 25-cm^2 culture flask added with 5 ml of the medium so as to contain 2×10^6 cells therein. In the same manner as described above, S-HSA-EDC-Hemin is given thereto, thereby conducting culture at 37° C. in the presence of 5% CO2. After 4 days, the number of cells are counted to calculate the number of HIV envelope protein gp120 positive cells, analysis making use of FACS and the quantity of P24 protein produced."}},
  "data": [
    {"substance": "S--HSA--EDC-Hemin: complex of succinylated human serum albumin and EDC-Hemin", "values": [
      {"measurement": "number of living cells (% of control)", "setting": "Hela/LAV cells; 25 μg/ml", "result": 91, "unit": "%"},
      {"measurement": "number of living cells (% of control)", "setting": "Hela/LAV cells; 50 μg/ml", "result": 82, "unit": "%"},
      {"measurement": "number of living cells (% of control)", "setting": "Hela/LAV cells; 100 μg/ml", "result": 72, "unit": "%"},
      {"measurement": "number of living cells (% of control)", "setting": "Hela/LAV cells; 200 μg/ml", "result": 32, "unit": "%"},
      {"measurement": "number of living cells (% of control)", "setting": "Hela/LAV cells; 400 μg/ml", "result": 2, "unit": "%"},
      {"measurement": "number of living cells (% of control)", "setting": "H9/MN cells; 25 μg/ml", "result": 79, "unit": "%"},
      {"measurement": "number of living cells (% of control)", "setting": "H9/MN cells; 50 μg/ml", "result": 59, "unit": "%"},
      {"measurement": "number of living cells (% of control)", "setting": "H9/MN cells; 100 μg/ml", "result": 3, "unit": "%"},
      {"measurement": "number of living cells (% of control)", "setting": "H9/MN cells; 200 μg/ml", "result": 1, "unit": "%"},
      {"measurement": "number of living cells (% of control)", "setting": "[1]; 25 μg/ml", "result": 98, "unit": "%"},
      {"measurement": "number of living cells (% of control)", "setting": "[1]; 50 μg/ml", "result": 93, "unit": "%"},
      {"measurement": "number of living cells (% of control)", "setting": "[1]; 100 μg/ml", "result": 78, "unit": "%"},
      {"measurement": "number of living cells (% of control)", "setting": "[1]; 200 μg/ml", "result": 36, "unit": "%"},
      {"measurement": "number of living cells (% of control)", "setting": "[1]; 400 μg/ml", "result": 4, "unit": "%"},
      {"measurement": "Living cells in uninfected system", "setting": "[2]; 15.2 μg/ml", "result": 115, "unit": "%"},
      {"measurement": "Living cells in uninfected system", "setting": "[2]; 30.3 μg/ml", "result": 83, "unit": "%"},
      {"measurement": "Living cells in uninfected system", "setting": "[2]; 60.6 μg/ml", "result": 63, "unit": "%"},
      {"measurement": "Living cells in uninfected system", "setting": "[2]; 91.0 μg/ml", "result": 57, "unit": "%"},
      {"measurement": "dose showing no toxicity", "setting": "male ICR mice", "result": "≤ 400", "unit": "mg/kg"},
      {"measurement": "gp120 positive cells in infected system compared with the day the test was started", "setting": "[3]; after 4 days", "result": 16, "unit": "%"},
      {"measurement": "killing effect on HIV-infected cells", "setting": "[3]; after 4 days", "result": "has a cytotoxic effect, but exhibits a strong and specific killing effect on HIV-infected cells without being attended with the production of HIV"},
      {"measurement": "Number of gp120 positive cells", "setting": "[3]; day 0 of culture", "result": "0.15 ×10^6"},
      {"measurement": "Number of gp120 positive cells", "setting": "[3]; day 4 of culture (untreated 3.4)", "result": "0.024 ×10^6"}
    ]}
  ]
}
